Measured values published in US9359317B2, “Small molecule inhibitors of HIV proteases” (Purdue Research Foundation, priority 2008, dated 2016).

Target: HIV Protease (Human immunodeficiency virus type 1 group M subtype B, UniProt P04585)
Experiment: Inhibition of HIV Protease
Format: biochemical
Details: Table 1, Inhibition of HIV Protease by compounds of formula drawing 46

## C=CC[C@H]1O[C@@H](Cc2ccccc2)C[C@@H]1[C@@H](NS(=O)(=O)c1ccc(C)cc1)C(=O)O
  Ki: 0.41 nM

## O=C(O)[C@H](NS(=O)(=O)c1ccc(CO)cc1)[C@@H]1CO[C@@H](Cc2ccccc2)C1
  Ki: > 1000 nM

## C=CC[C@H]1O[C@@H](c2ccc(COC)cc2)C[C@@H]1[C@@H](NS(=O)(=O)c1ccc(C)cc1)C(=O)O
  Ki: > 1000 nM
